The source of these data is ChEMBL document CHEMBL1155893 (J Med Chem, 2008).

By UniProt entry, the sequences of proteins in these tests, tags left out. Residues count along the entry.
UniProt P0DPI0, 2-448 limits assumed: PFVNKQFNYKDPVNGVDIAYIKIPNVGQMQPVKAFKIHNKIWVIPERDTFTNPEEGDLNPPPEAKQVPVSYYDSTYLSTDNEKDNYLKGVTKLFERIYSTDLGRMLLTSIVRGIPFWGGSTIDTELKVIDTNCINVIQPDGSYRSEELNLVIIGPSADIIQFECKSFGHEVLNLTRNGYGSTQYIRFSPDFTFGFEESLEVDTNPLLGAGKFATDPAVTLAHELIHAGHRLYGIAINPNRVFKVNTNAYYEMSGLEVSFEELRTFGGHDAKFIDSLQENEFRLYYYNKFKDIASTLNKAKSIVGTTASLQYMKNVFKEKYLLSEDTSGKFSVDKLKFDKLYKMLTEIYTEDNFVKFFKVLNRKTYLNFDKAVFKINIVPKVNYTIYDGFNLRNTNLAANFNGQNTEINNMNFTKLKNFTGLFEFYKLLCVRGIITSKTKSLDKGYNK

The target of the experiment is Botulinum neurotoxin type A (Clostridium botulinum, UniProt P0DPI0). Nature of the experiment: Inhibition of Clostridium botulinum neurotoxin serotype A light chain metalloprotease activity.
For the compound `Clc1ccc2c(NCCCNCCC34CC5CC(CC(C5)C3)C4)ccnc2c1`, the IC50 – broadly, the point on the concentration scale where inhibition reaches its midpoint – was found to be 50.1 µM.
Compound `Clc1ccc2c(NCCNCCC34CC5CC(CC(C5)C3)C4)ccnc2c1` showed a 50% inhibitory concentration (IC50) of 11.8 µM.
Take `CC(=O)O[C@@H]1CC[C@@]2(C)[C@@H](C1)C[C@@H](OC(C)=O)[C@@H]1[C@@H]2C[C@H](OC(C)=O)[C@]2(C)[C@@H]([C@H](C)CCCNCCNc3ccnc4cc(Cl)ccc34)CC[C@@H]12`: the IC50 was 10 µM.
For `Clc1ccc2c(NCCNCC34CC5CC(CC(C5)C3)C4)ccnc2c1` the value was 18.9 µM; for `Clc1ccc2c(NCCCNCC34CC5CC(CC(C5)C3)C4)ccnc2c1`, 32 µM.
